Among the data in paper PMC7497253 (Chemmedchem, 2020) are isolated yield and isolated mass values, retold here.

Strings that start with PEPTIDE1 are HELM notation: dots part the residues, brackets hold end groups and non-standard residues.

The data set can be described thus: general procedure: peptide synthesis; 2-CTC resin; HBTU/HOBt; HATU/DIPEA for cyclisation. The settings on record: whole synthesis, scale ≈125 μmol, TFA salt.

Take “PEPTIDE1{G.[3AMPhac].K.K.[dN(Ca)Lys]}$PEPTIDE1,PEPTIDE1,1:R1-5:R2$$$V2.0”: the isolated mass turned out to be 21.1 mg. Moreover, the isolated yield (based on the loaded Boc-dLys(Fmoc)-2-CTC-resin) is on record as 17%.
